Pooled drug test results. Numbers come from NIAID ChemDB, via PubChem.

All rows: whole-cell or culture tests; agent: Candida albicans

An empty or dashed field is not shown. MIC50, MIC90 and the like: level of inhibition, or share of isolates inhibited. ECn: concentration that inhibits the pathogen or its effect by n%. Conditions beyond the fields shown may differ between rows. a–b is a range or a potency band.

structure | conditions | endpoint | method | strain or isolate | result
Cn1cc(-c2ccccc2)c(C(c2cccc3ccccc23)n2ccnc2)c1 |  | MIC |  |  | 6 µg/mL
CCC(c1ccc(OC)cc1)C(c1ccc(OC)cc1)n1cnnc1 |  | EC50 |  | 28 strains | <256 µg/mL
CCCc1ncc(C(N)=O)nc1SCC |  | MIC |  | ATCC 44859 | >31.25 µg/mL
CCC(C)n1ncn(-c2ccc(N3CCN(c4ccc(OC[C@H]5CO[C@](Cn6cncn6)(c6ccc(Cl)cc6Cl)O5)cc4)CC3)cc2)c1=O | pH 6 | MIC | broth dilution | 10 isolates | 0.06 µg/mL
Nc1scc2c1c(=O)oc1ccccc12 |  | MIC | broth dilution | ATCC 2091 | 128 µg/mL
N#CSc1ccc2nc(NC(=O)CN3C(=O)S/C(=C/c4ccc(Cl)cc4)C3=O)sc2c1 |  | MIC | broth dilution / visual reading | MTCC 227 | 1000 µg/mL
Cc1ccccc1CC(Cc1ccc(-c2ccccc2)cc1)n1ccnc1 |  | MIC |  |  | 33 µM
COc1ccc(/C=C2/SC(=O)NC2=O)cc1 |  | MIC | broth dilution / visual reading | MTCC 227 | 500 µg/mL
CC1=CC[C@@H]2[C@H](C1)C2(C)C |  | MIC |  | D5 | 0.08–0.16 µg/mL
COc1ccc(CC(Cc2ccc(-c3ccccc3)cc2)n2ccnc2)cc1 |  | MIC |  |  | 33 µM
COc1cc(O)c2c(c1)C(=O)c1c(cc3c(c1O)-c1c(cc(C)c(C(=O)N[C@H](C)C(=O)O)c1O)[C@H](O[C@@H]1O[C@H](C)[C@H](O)[C@H](O[C@@H]4OC[C@@H](O)[C@H](O)[C@H]4O)[C@H]1O)[C@H]3O)C2=O |  | MIC |  | 5 isolates | 2.5–10 µg/mL
OC(Cn1cncn1)(Cn1cncn1)c1ccc(F)cc1F | 48 h | MIC90 |  | 63 isolates | 6.4 µg/mL
FC(F)(F)c1ccc(-c2c[nH]cc2C(c2ccc(Cl)cc2Cl)n2ccnc2)cc1 |  | MIC |  |  | 2.2 µg/mL
O=C1CSC(=O)N1 |  | MIC | broth dilution / visual reading | MTCC 227 | 250 µg/mL
Nc1ccc(-c2c[nH]cc2C(c2ccc(Cl)cc2Cl)n2ccnc2)cc1 |  | MIC |  |  | 28 µg/mL
CCCCSc1nc(C(N)=S)cnc1CC(C)C |  | MIC |  | ATCC 44859 | >31.25 µg/mL
Cc1ccc2cccc(N=c3ssnc3Cl)c2n1 |  | MFC99 |  | ATCC 10231 | 32 µg/mL
COc1ccc(C(Cc2ccc(Cl)cc2Cl)C(c2ccc(OC)cc2)n2ccnc2)cc1 |  | MIC90 |  | 28 strains | 128 µg/mL
C=CCSS(=O)CC=C |  | MIC50 | broth dilution | ATCC 10231 | 250 µg/mL
CC(C)(C)c1ncc(C(N)=S)nc1Sc1ccccc1 |  | MIC |  | ATCC 44859 | >31.25 µg/mL
CCN(CC)c1ccc(/C=N/NC(=O)c2ccccc2F)c(O)c1 |  | MIC | MTT / broth dilution |  | >50 µg/mL
COC(=O)[C@H]1[C@@H]2C[C@@H](O[C@@H]3O[C@H](C)[C@@H](O)[C@H](N)[C@@H]3O)/C=C/C=C/C=C/C=C/C=C/C=C/C=C/[C@H](C)[C@@H](O)[C@H](C)[C@H](C)OC(=O)C[C@H](O)C[C@H](O)[C@@H](O)CC[C@H](O)C[C@H](O)C[C@](O)(C[C@@H]1O)O2 | pH 5 | MIC | broth dilution | 10 isolates | 4 µg/mL
Fc1ccc(CC(Cc2ccc(-c3ccccc3)cc2)n2ccnc2)cc1 |  | MIC |  |  | 5.5 µM
C[C@@H]1CC[C@@H](O)[C@@](C)(O)[C@@]1(C)CCc1ccc2c(c1)C(=O)C=CC2=O |  | MIC |  |  | 6 µg/mL
Clc1ccc(CC(Cc2ccc(-c3ccccc3)cc2)n2ccnc2)cc1 |  | MFC |  |  | 33 µM
CC[C@@H]([C@H](C)O)n1ncn(-c2ccc(N3CCN(c4ccc(OC[C@@H]5CO[C@@](Cn6cncn6)(c6ccc(F)cc6F)C5)cc4)CC3)cc2)c1=O | pH 7 | EC90 | broth dilution | 10 isolates | 0.03 µg/mL
Cc1n[nH]c(=O)n1CCCCCCn1c(C)n[nH]c1=O |  | MIC |  |  | 7.5 µg/mL
CCC(c1ccc(Cl)cc1)C(c1ccc(OC)cc1)n1cncn1 |  | MIC50 |  | 28 strains | 64 µg/mL
CCCSc1nc(C(N)=O)cnc1CC(C)C |  | MIC |  | ATCC 44859 | >31.25 µg/mL
COc1cc(/C=C2/SC(=O)NC2=O)cc(OC)c1OC |  | MIC | broth dilution / visual reading | MTCC 227 | 500 µg/mL
Oc1cccc2c(N=c3ssnc3Cl)cccc12 |  | MFC99 |  | ATCC 10231 | 16 µg/mL
Cc1ccc(O)c(C(C)C)c1 |  | MIC |  | HITM 22 | 1 µg/mL
COc1ccc(CC(c2ccc(OC)cc2)n2ccnc2)cc1 |  | MIC50 |  | 28 strains | 16 µg/mL
CCCCc1ncc(C(N)=O)nc1SCCC |  | MIC |  | ATCC 44859 | >31.25 µg/mL
Clc1ccccc1CC(Cc1ccc(-c2ccccc2)cc1)n1ccnc1 |  | MIC |  |  | 19.2 µM
C=CCc1ccc(OC)c(OC)c1 |  | MIC90 | turbidity | 2938 | 350 µg/mL
Oc1ccc(-c2c[nH]cc2C(c2ccc(Cl)cc2Cl)n2ccnc2)cc1 |  | MIC |  |  | 26 µg/mL
CCCc1ncc(C(N)=S)nc1SCC |  | MIC |  | ATCC 44859 | >31.25 µg/mL
C=C1CC[C@H](OC(=O)C=C(C)C)C(C)(C)C1CCc1ccc2c(c1)C(=O)C1OC1C2=O |  | MIC |  |  | >50 µg/mL
O=c1[nH]nc(-c2ccccc2)n1CCCCCCn1c(-c2ccccc2)n[nH]c1=O |  | MIC |  | ATCC 90028 | 1.87 µg/mL
CC[C@@H](c1ccc(Cl)cc1)[C@@H](c1ccc(OC)cc1)n1cnnc1 |  | EC50 |  | 28 strains | <256 µg/mL
CCCSc1nc(C(N)=S)cnc1CCC |  | MIC |  | ATCC 44859 | >31.25 µg/mL
COc1ccccc1N=c1ssnc1Cl |  | MFC99 |  | ATCC 10231 | 16 µg/mL
Cn1cc(-c2ccc(Cl)cc2Cl)c(C(c2ccc(Cl)cc2Cl)n2ccnc2)c1 |  | MIC |  |  | 2.9 µg/mL
C[C@H]1[C@H](O)[C@@H](C)/C=C/C=C/C=C/C=C/C=C/C=C/C=C/[C@H](O[C@@H]2O[C@H](C)[C@@H](O)[C@H](N)[C@@H]2O)C[C@@H]2O[C@](O)(C[C@@H](O)C[C@@H](O)CC[C@H](O)[C@@H](O)C[C@@H](O)CC(=O)O[C@H]1C)C[C@H](O)[C@H]2C(=O)O |  | MIC |  | ATCC 90028 | 2.9 µg/mL
C[C@@H](c1ncncc1F)[C@](O)(Cn1cncn1)c1ccc(F)cc1F | pH 4 | EC90 | broth dilution | 15 isolates | 0.03 µg/mL
CCn1c2c(c3ccccc31)C(=O)c1cc(C)cnc1C2=O |  | MIC |  |  | >200 µg/mL
Clc1nssc1=Nc1cccc2cccnc12 |  | MFC99 |  | ATCC 10231 | 16 µg/mL
O=C(NCCCCCCNC(=O)NNC(=O)c1ccccc1)NNC(=O)c1ccccc1 |  | MIC |  |  | 7.5 µg/mL
COc1ccc(C(Cc2ccc(Cl)cc2)n2cncn2)cc1 |  | MIC50 |  | 28 strains | 32 µg/mL
CC1(C)S[C@@H]2[C@H](NC(=O)Cc3ccccc3)C(=O)N2[C@H]1C(=O)O |  | MIC | MTT / broth dilution |  | >50 µg/mL
Clc1ccc(C(c2c[nH]cc2-c2ccc(-n3cccc3)cc2)n2ccnc2)c(Cl)c1 |  | MIC |  |  | 1.3 µg/mL
C=C1CC(C/C(C)=C/COc2ccc3ccc(=O)oc3c2)OC1=O |  | MIC |  | MTCC 183 | 78 µg/mL
CCSc1nc(C(N)=S)cnc1C(C)(C)C |  | MIC |  | ATCC 44859 | >31.25 µg/mL

The first 3 rows once more:

Cn1cc(-c2ccccc2)c(C(c2cccc3ccccc23)n2ccnc2)c1 ; endpoint: MIC ; result: 6 µg/mL
CCC(c1ccc(OC)cc1)C(c1ccc(OC)cc1)n1cnnc1 ; endpoint: EC50 ; strain or isolate: 28 strains ; result: <256 µg/mL
CCCc1ncc(C(N)=O)nc1SCC ; endpoint: MIC ; strain or isolate: ATCC 44859 ; result: >31.25 µg/mL